Laboratory results published in the CheMixHub viscosity set.

Experiments:
[1] = xn = mol fraction of the nth substance listed; settings: 101.3 kPa
[2] = 101.3 kPa

CCC[N+]1(C)CCCCC1.O=S(=O)(F)[N-]S(=O)(=O)F + CCC[N+]1(C)CCCCC1.O=S(=O)([N-]S(=O)(=O)C(F)(F)F)C(F)(F)F
viscosity [mPa·s], [1]
Settings | 293.15 K | 298.15 K | 303.15 K | 308.15 K
x2 = 0.2 | 70.3 | 57.8 | – | –
x2 = 0.4 | 86.5 | 69.7 | – | –
x2 = 0.6 | – | 79.9 | 64.5 | 52.8
x2 = 0.8 | – | – | 81.5 | 65.2

CCC[N+]1(C)CCCCC1.O=S(=O)(F)[N-]S(=O)(=O)F + CCCC[N+]1(C)CCCC1.O=S(=O)(F)[N-]S(=O)(=O)F
viscosity [mPa·s], [1]
Settings | x1 = 0.2 | x1 = 0.4 | x1 = 0.6 | x1 = 0.8
293.15 K | 93.2 | 72.4 | 68.1 | 65.9
298.15 K | 75.7 | 59.6 | 56.4 | 54.8
303.15 K | 62.3 | 49.7 | – | –

CCC[N+]1(C)CCCCC1.O=S(=O)(F)[N-]S(=O)(=O)F
[2]
Settings | viscosity [mPa·s]
293.15 K | 61.4
298.15 K | 51.2
303.15 K | 43.3
308.15 K | 36.9
313.15 K | 31.8
318.15 K | 27.6
323.15 K | 24.2
